Experimental data taken from PMC8136791, “In vivo targets of Salmonella FinO include a FinP-like small RNA controlling copy number of a cohabitating plasmid”.

Biological target: T1, FinO (UniProt A0A0H3P176)
T1 sequence (looked up, limits assumed): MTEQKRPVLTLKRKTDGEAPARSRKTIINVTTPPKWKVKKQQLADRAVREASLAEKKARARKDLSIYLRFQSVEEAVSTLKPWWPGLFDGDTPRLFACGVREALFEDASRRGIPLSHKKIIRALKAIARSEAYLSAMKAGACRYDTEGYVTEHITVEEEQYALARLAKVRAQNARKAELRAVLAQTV
Assay: competition with a labelled probe
Details: 25 mM Tris-HCl pH 7.4, 150 mM NaCl, 1 mM MgCl2, 1 ug yeast RNA/reaction, 4 nM labeled RNA, 37 C, 1 h (EMSA) or 30 min (filter binding), recombinant protein, letters put together from the description

Sequence: GGGCAUUGAUUGCCUCCUUUGCAGGCAGUUGGUGGUUAGGCGCUGGCGGGGUCACUACCCCCGCCCUGCGCCGCUCU [RepX]
- binding result (unlabeled RepX displaces FinP*, less effectively, 500 nM FinO): binds more weakly
- binding result (unlabeled RepX unable to compete with FinP*, 5 uM FinO): binds more weakly

For at least one entry, the source does not settle the construct or the ends of the probe. Weaker means in comparison with the reference protein, sequence or condition of that experiment. Protein sequences can lack the tags named with them.
